This note sets out measurements from US20230338310A1, “ANTI-VIRAL THERAPY” (priority 2020, published 2023).

SMILES strings stand for the structures. Structures can show the parent of a compound that is named as a salt.

The data set is described as follows: PLP thiazolidine formation: reaction with pyridoxal-5′ phosphate cofactor, absorbance scan. The note with it: for absorbance at 320 nm, reaction products versus PLP alone / absorbance at 390 nm versus PLP alone: 2 mM compound + 2 mM PLP, carbonate-bicarbonate buffer pH 7.4, 1 h room temperature, n=6; for reaction with PLP (thiazolidine formation): equimolar 2 mM, pH 7.4.

On to `NCCSSCCN` [cystamine dihydrochloride, 2,2′-Dithiobis(ethylamine)], for which the “absorbance at 320 nm, reaction products versus PLP alone” value is “significant difference”; the “absorbance at 390 nm versus PLP alone” value is recorded as “non-significant reduction”; the “reaction with PLP (thiazolidine formation)” value is listed as “to a lesser extent”.

For `NCCS` [cysteamine, 2-Aminoethanethiol], the “absorbance at 320 nm, reaction products versus PLP alone” value is “significant difference”; the “absorbance at 390 nm versus PLP alone” value is listed as “significant reduction”; the “reaction with PLP (thiazolidine formation)” value is on record as “react with PLP”.
